Results of unrelated studies side by side (data: NIAID ChemDB).

Common to all: tests on isolated targets

Blank or dashed fields: not listed here. Fold resistance: result on the changed form divided by that on wild type. ICn: concentration for n% inhibition. Inhibition is in % at the dose shown (toxicity tests: loss of growth or viability). Rows are shuffled and stem from different studies. Two numbers with a dash give a range or band.

SMILES	method	measure	strain or isolate	tested at	target	species	mutations	result
CC[C@H](C)[C@H](NC(=O)[C@@H](NC(=O)[C@H](CCC(=O)O)NC(=O)[C@H](CC(=O)O)NC(C)=O)C(c1ccccc1)c1ccccc1)C(=O)N[C@@H](CC1CCCCC1)C(=O)N[C@@H](CS)C(=O)O		IC50			NS3/NS4A protease	Hepatitis C virus		0.06 µM
O=C(Nc1ccc2[nH]ncc2c1)c1cc(NCc2ccccn2)c(F)cc1F		inhibition		0.1 µg/mL	Nonstructural protein 5B	Hepatitis C virus		36%
O=C(O)[C@H](Cc1ccccc1)N(Cc1cccc(Br)c1)C(=O)c1ccc(Cl)c(Cl)c1		IC50			RNA-dependent RNA polymerase	Hepatitis C virus		>20 µM
CC(=O)N[C@@H](CC(=O)O)C(=O)N[C@@H](CCC(=O)O)C(=O)N[C@H](C(=O)N[C@@H](CCC(=O)O)C(=O)N[C@@H](CC1CCCCC1)C(=O)N[C@@H](CS)C(=O)O)C(c1ccccc1)c1ccccc1		IC50			Full-length NS3	Hepatitis C virus		0.06847 µM
CC(=O)N[C@@H](CCC(=O)O)C(=O)N[C@@H](CC(C)C)C(=O)N[C@@H](CCC(=O)O)C(=O)N[C@@H](CC1CCCCC1)C(=O)N[C@@H](CS)C(=O)O		IC50			NS3/NS4A protease	Hepatitis C virus		2.6 µM
O=C(Nc1ccc2cn[nH]c2c1)c1cc(N2CCNCC2)c(F)cc1F		inhibition		10 µg/mL	Nonstructural protein 5B	Hepatitis C virus		40%
O=c1cc(-c2ccc(O)c(O)c2)oc2c(O)c(O)ccc12	SYBR Green	inhibition	J4	20 µM	Replicase complex	Hepatitis C virus		30.9%
COC(=O)c1ccc(-c2ccc(CN([C@@H](Cc3ccccc3)C(=O)O)S(=O)(=O)c3c(C)cc(OC)c(C)c3C)cc2)s1		IC50			RNA-dependent RNA polymerase	Hepatitis C virus		>20 µM
C[C@@]1(O)[C@H](O)[C@@H](COP(=O)(O)OP(=O)(O)OP(=O)(O)O)O[C@@]1(C#N)c1ccc2c(N)ncnn12	radiometric	fold resistance	2a JFH-1		Nonstructural protein 5B	Hepatitis C virus	M289V	1.4
COc1cc(O)c2c(=O)c(OC)c(-c3ccc(OC)c(OC)c3)oc2c1	SYBR Green	inhibition	J4	20 µM	Replicase complex	Hepatitis C virus		14.5%
O=C(Nc1ccc2cn[nH]c2c1)c1cc(N2CCC(O)CC2)c(F)cc1F		inhibition		0.1 µg/mL	Nonstructural protein 5B	Hepatitis C virus		24%
O=C1/C(=C\c2cc(Br)ccc2F)SC(=S)N1NS(=O)(=O)c1ccccc1		IC50			NS5B polymerase	Hepatitis C virus		≤30 µM
O=C(Nc1ccc2cn[nH]c2c1)c1cc(N2CCN(CCO)CC2)c(F)cc1F		inhibition		1 µg/mL	Reverse transcriptase	Hepatitis B virus		76%
O=C(O)[C@H](Cc1ccccc1)N(Cc1cccc(Br)c1)C(=O)c1ccccc1Cl		IC50			RNA-dependent RNA polymerase	Hepatitis C virus		>20 µM
CC[C@H](C)[C@H](NC(=O)[C@@H](NC(=O)[C@H](CCC(=O)O)NC(=O)[C@H](CC(=O)O)NC(C)=O)C(c1ccccc1)c1ccccc1)C(=O)N[C@@H](CC1CCCCC1)C(=O)N[C@@H](CS)C(N)=O		IC50			NS3/NS4A protease	Hepatitis C virus		3.1 µM
CCOC(=O)c1ccccc1-c1ccc(CN(C(=O)c2ccc(Cl)cc2Cl)[C@@H](Cc2ccccc2)C(=O)O)o1		IC50			RNA-dependent RNA polymerase	Hepatitis C virus		<5 µM
O=C1/C(=C\c2ccc(F)c(F)c2F)SC(=S)N1NS(=O)(=O)c1ccccc1		IC50			NS5B polymerase	Hepatitis C virus		≤30 µM
O=C(Nc1ccc2[nH]ncc2c1)c1cc(N2CCN(CCO)CC2)c(F)cc1F		IC50			Reverse transcriptase	Hepatitis B virus		0.1–1 µg/mL
NN1C(=O)/C(=C\c2ccc([N+](=O)[O-])cc2)SC1=S		IC50			NS5B polymerase	Hepatitis C virus		≤30 µM
CSCC[C@H](NC(=O)[C@H](CCC(=O)O)NC(=O)[C@H](CC(=O)O)NC(C)=O)C(=O)N[C@@H](CCC(=O)O)C(=O)N[C@@H](CC1CCCCC1)C(=O)N[C@@H](CS)C(=O)O		IC50			HCV NS3 protease	Hepatitis C virus		0.36 µM
O=c1cc(-c2ccccc2)oc2cccc(O)c12	SYBR Green	inhibition	J4	20 µM	Replicase complex	Hepatitis C virus		14.5%
O=C1/C(=C\c2ccccc2F)SC(=S)N1NS(=O)(=O)c1ccccc1		IC50			NS5B polymerase	Hepatitis C virus		≤30 µM
CC[C@H](C)[C@H](NC(=O)[C@H](CC(C)C)NC(=O)[C@@H](CCC(=O)O)NC(=O)[C@H](CC(=O)O)NC(=O)O)C(=O)N[C@@H](CC1CCCCC1)C(=O)N[C@@H](CS)C(=O)O		IC50			NS3/NS4A protease	Hepatitis C virus		0.01 µM
O=C(O)[C@H](Cc1ccccc1)N(Cc1ccc(Br)s1)C(=O)c1ccc(Cl)cc1Cl		IC50			RNA-dependent RNA polymerase	Hepatitis C virus		<5 µM
CC(=O)N[C@H](C(=O)N[C@@H](CCC(=O)O)C(=O)N[C@@H](CC1CCCCC1)C(=O)N[C@@H](CS)C(=O)O)C(c1ccccc1)c1ccccc1		IC50			Full-length NS3	Hepatitis C virus		1.837 µM
CC1=NCCN1c1cc(C(=O)Nc2ccc3[nH]ncc3c2)c(F)cc1F		inhibition		0.1 µg/mL	Nonstructural protein 5B	Hepatitis C virus		0%
O=C1c2ccc(O)cc2OC(c2ccc(O)c(O)c2)C1O	SYBR Green	inhibition	J4	20 µM	Replicase complex	Hepatitis C virus		14.5%
CN1CCNCCC1c1cc(C(=O)Nc2ccc3cn[nH]c3c2)c(F)cc1F		inhibition		0.01 µg/mL	Reverse transcriptase	Hepatitis B virus		10%
CSCC[C@H](NC(=O)[C@H](CCC(=O)O)NC(=O)[C@H](CC(=O)O)NC(C)=O)C(=O)N[C@@H](CCC(=O)O)C(=O)N[C@@H](Cc1ccc2ccccc2c1)C(=O)N[C@@H](CS)C(=O)O		IC50			Full-length NS3	Hepatitis C virus		0.7348 µM
CC(=O)N[C@@H](CC(=O)O)C(=O)N[C@@H](CCC(=O)O)C(=O)N[C@H](C(=O)N[C@@H](CCC(=O)O)C(=O)N[C@@H](CC1CCCCC1)C(=O)N[C@@H](CC(F)F)C(=O)C(=O)C(=O)O)C(c1ccccc1)c1ccccc1		IC50			NS3/NS4A protease	Hepatitis C virus		0.00001 µM
O=C(Nc1ccc2[nH]ncc2c1)c1cc(C2CCNCCN2)c(F)cc1F		inhibition		0.1 µg/mL	Nonstructural protein 5B	Hepatitis C virus		0%

For reference, 3 entries again:

| SMILES | method | measure | strain or isolate | tested at | target | species | mutations | result |
|---|---|---|---|---|---|---|---|---|
| C[C@@]1(O)[C@H](O)[C@@H](COP(=O)(O)OP(=O)(O)OP(=O)(O)O)O[C@@]1(C#N)c1ccc2c(N)ncnn12 | radiometric | fold resistance | 2a JFH-1 |  | Nonstructural protein 5B | Hepatitis C virus | M289V | 1.4 |
| O=C1/C(=C\c2cc(Br)ccc2F)SC(=S)N1NS(=O)(=O)c1ccccc1 |  | IC50 |  |  | NS5B polymerase | Hepatitis C virus |  | ≤30 µM |
| CC(=O)N[C@H](C(=O)N[C@@H](CCC(=O)O)C(=O)N[C@@H](CC1CCCCC1)C(=O)N[C@@H](CS)C(=O)O)C(c1ccccc1)c1ccccc1 |  | IC50 |  |  | Full-length NS3 | Hepatitis C virus |  | 1.837 µM |